From ChEMBL document CHEMBL4364262 (J Med Chem, 2019)

The chains behind the UniProt entries cited, without tags or fusion partners.
UniProt P04757, whole entry, looked up: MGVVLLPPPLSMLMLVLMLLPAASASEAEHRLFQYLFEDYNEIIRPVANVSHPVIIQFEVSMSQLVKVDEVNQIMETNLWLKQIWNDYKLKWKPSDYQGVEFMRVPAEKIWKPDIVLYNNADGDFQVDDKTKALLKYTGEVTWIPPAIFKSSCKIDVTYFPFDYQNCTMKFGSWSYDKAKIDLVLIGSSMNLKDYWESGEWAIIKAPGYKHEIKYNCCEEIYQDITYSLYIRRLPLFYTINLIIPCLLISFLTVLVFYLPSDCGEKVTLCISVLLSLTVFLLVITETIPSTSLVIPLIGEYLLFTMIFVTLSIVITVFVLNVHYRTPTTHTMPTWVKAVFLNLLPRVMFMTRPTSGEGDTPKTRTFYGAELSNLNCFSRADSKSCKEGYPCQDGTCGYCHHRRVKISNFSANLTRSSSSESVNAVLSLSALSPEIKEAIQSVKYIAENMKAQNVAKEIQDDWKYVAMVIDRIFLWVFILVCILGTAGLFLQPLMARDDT
UniProt P12390, whole entry, looked up: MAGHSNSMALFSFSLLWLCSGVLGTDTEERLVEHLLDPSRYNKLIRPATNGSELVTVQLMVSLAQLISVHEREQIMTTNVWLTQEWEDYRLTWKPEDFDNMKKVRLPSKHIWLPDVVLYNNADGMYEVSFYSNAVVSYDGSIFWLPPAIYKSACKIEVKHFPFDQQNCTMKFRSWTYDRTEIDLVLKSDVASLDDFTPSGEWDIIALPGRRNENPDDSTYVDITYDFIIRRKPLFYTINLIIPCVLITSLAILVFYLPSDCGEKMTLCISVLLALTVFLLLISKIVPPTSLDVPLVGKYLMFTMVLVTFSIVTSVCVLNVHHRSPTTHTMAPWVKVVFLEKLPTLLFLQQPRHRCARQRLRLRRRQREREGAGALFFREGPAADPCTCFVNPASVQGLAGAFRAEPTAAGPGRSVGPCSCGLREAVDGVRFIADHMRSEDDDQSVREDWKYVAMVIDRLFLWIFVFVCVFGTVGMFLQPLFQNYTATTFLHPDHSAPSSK

How the values were obtained:
Rattus norvegicus [1] = organism: Rattus norvegicus; experiment: Selectivity ratio of IC50 for rat alpha6beta4 nAChR expressed in Xenopus laevis oocytes to IC50 for rat alpha3beta2 nACHR expressed in Xenopus laevis oocytes
Rattus norvegicus [2] = organism: Rattus norvegicus; experiment: Selectivity ratio of IC50 for rat alpha6beta2 nAChR expressed in Xenopus laevis oocytes to IC50 for rat alpha3beta2 nACHR expressed in Xenopus laevis oocytes
Rattus norvegicus [3] = organism: Rattus norvegicus; experiment: Selectivity ratio, ratio of IC50 for rat alpha3beta4 nACHR expressed in Xenopus laevis oocytes to IC50 for rat alpha3beta2 nACHR expressed in Xenopus laevis oocytes
Rattus norvegicus [4] = organism: Rattus norvegicus; experiment: Selectivity ratio of IC50 for rat alpha6/alpha3beta2beta3 nAChR expressed in Xenopus laevis oocytes to IC50 for rat alpha3beta2 nACHR expressed in Xenopus laevis oocytes
Rattus norvegicus [5] = organism: Rattus norvegicus; experiment: Selectivity ratio, ratio of IC50 for rat alpha7 nAChR expressed in Xenopus laevis oocytes to IC50 for rat alpha3beta2 nACHR expressed in Xenopus laevis oocytes
Rattus norvegicus [6] = organism: Rattus norvegicus; experiment: Selectivity ratio, ratio of IC50 for rat alpha4beta2 nACHR expressed in Xenopus laevis oocytes to IC50 for rat alpha3beta2 nACHR expressed in Xenopus laevis oocytes
Rattus norvegicus [7] = organism: Rattus norvegicus; experiment: Selectivity ratio, ratio of IC50 for rat alpha6alpha3beta4 nAChR expressed in Xenopus laevis oocytes to IC50 for rat alpha3beta2 nACHR expressed in Xenopus laevis oocytes
[8] = molecular target: T1, Neuronal acetylcholine receptor; alpha3/beta2 (Rattus norvegicus) (UniProt P04757+P12390); experiment: Reversible inhibition of rat alpha3beta2 nACHR expressed in Xenopus laevis oocytes assessed as off-rate constant at 100 nM at -70 mV holding potential by two electrode voltage-clamp assay
[9] = molecular target: T1, Neuronal acetylcholine receptor; alpha3/beta2 (Rattus norvegicus); experiment: Reversible inhibition of rat alpha3beta2 nACHR expressed in Xenopus laevis oocytes assessed as half-life for enzyme recovery at 100 nM at -70 mV holding potential by two electrode voltage-clamp assay
[10] = molecular target: T1, Neuronal acetylcholine receptor; alpha3/beta2 (Rattus norvegicus); experiment: Antagonist activity at rat alpha3beta2 nACHR expressed in Xenopus laevis oocytes assessed as dissociation half-life at 10 nM at -70 mV holding potential by two electrode voltage-clamp assay relative to control
[11] = molecular target: T1, Neuronal acetylcholine receptor; alpha3/beta2 (Rattus norvegicus); experiment: Antagonist activity at rat alpha3beta2 nACHR expressed in Xenopus laevis oocytes assessed as inhibition of Ach-induced responses by measuring observed inhibitory rate constant at 10 nM at -70 mV holding potential by two electrode voltage-clamp assay

| Structure (SMILES) | Ratio IC50 (Rattus norvegicus [1]) | Ratio IC50 (Rattus norvegicus [2]) | Ratio IC50 (Rattus norvegicus [3]) | Ratio IC50 (Rattus norvegicus [4]) | Ratio IC50 (Rattus norvegicus [5]) | Ratio IC50 (Rattus norvegicus [6]) | Ratio IC50 (Rattus norvegicus [7]) | K [8] [min⁻¹] | T1/2 [9] [min] | T1/2 [10] [min] | K [11] [min⁻¹] |
| --- | --- | --- | --- | --- | --- | --- | --- | --- | --- | --- | --- |
| CC[C@H](C)[C@@H]1NC(=O)[C@H](CCC(=O)O)NC(=O)[C@@H]2CCCN2C(=O)[C@H](Cc2cnc[nH]2)NC(=O)[C@H](CC(=O)O)NC(=O)[C@H](C(C)C)NC(=O)[C@H](CC(N)=O)NC(=O)[C@@H]2CSSC[C@H](NC(=O)CN)C(=O)N[C@@H](CSSC[C@@H](C(N)=O)NC1=O)C(=O)N[C@@H](CO)C(=O)N[C@@H](Cc1cnc[nH]1)C(=O)N1CCC[C@H]1C(=O)N[C@@H](C)C(=O)N2 | < 20 | < 20 | < 20 | 12 |  |  |  |  |  |  |  |
| CCCC[C@@H]1NC(=O)[C@H](Cc2cnc[nH]2)NC(=O)[C@@H]2CSSC[C@H](NC(=O)CN)C(=O)N[C@@H](CSSC[C@@H](C(N)=O)NC(=O)[C@H]([C@@H](C)CC)NC(=O)[C@H](CCC(=O)O)NC(=O)[C@@H]3CCCN3C(=O)[C@H](Cc3cnc[nH]3)NC(=O)[C@H](CCCCC(=O)O)NC1=O)C(=O)N[C@@H](CO)C(=O)N[C@@H](Cc1cnc[nH]1)C(=O)N1CCC[C@H]1C(=O)N[C@@H](C)C(=O)N2 |  |  | 292 | 290 | 12 | 1620 | 158 | 0.065 | 10.6 | 1.1 | 0.617 |
